A mixed list of measured activities; the numbers were collected in NIAID ChemDB.

Shared fields: whole-cell or culture tests; organism: HIV-1

An empty or dashed field is not shown. ECn is the concentration giving n% inhibition of infection, replication or growth. Neighbouring rows are from separate reports. a–b is a range or a potency band.

| structure | setting | measure | changes | strain | read by | cells | value |
|---|---|---|---|---|---|---|---|
| Cc1cn([C@H]2C[C@@H](O)[C@H](CO)O2)c(=O)[nH]c1=O | - | EC50 | - | IIIB | cytopathic effect / MTT | MT-4 | >1000 µM |
| Nc1nc2nc[nH]c2c(=O)[nH]1 | - | EC50 | - | IIIB | p24 | MOLT4 + MOLT-4 | >300 µM |
| O[C@@H]1[C@@H](O)[C@@H](OCc2ccccc2)[C@@H](Cc2ccccc2)S[C@H](Cc2ccccc2)[C@@H]1OCc1ccccc1 | - | EC50 | - | IIIB | cytopathic effect / XTT | MT-2 | 2–10 µM |
| Nc1ncnc2c1ncn2[C@@H]1O[C@H](CO)[C@@H](O)[C@H]1O | - | EC50 | - | IIIB | p24 | MOLT4 + MOLT-4 | >1531 µM |
| Cc1c(O)cccc1C(=O)N[C@@H](CSc1ccccc1)[C@H](O)CN1C[C@H]2CCCC[C@H]2C[C@H]1C(=O)NC(C)(C)CO | - | EC50 | - | RF | cytopathic effect / MTT | CEM + CEM-SS | 0.0342 µM |
| O=C(CCC(=O)N1CCN(CCNC(=S)Nc2ccc(Br)cn2)CC1)NCC(=O)OC[C@@H]1C=C[C@H](n2ccc(=O)[nH]c2=O)O1 | - | EC50 | - | IIIB | RT activity | MT-4 | >100 µM |
| CCOCc1cn(Cc2ccncc2)c(Sc2ccccc2)c1C(C)C | - | EC50 | - | IIIB | cytopathic effect / MTT | MT-4 | 7 µM |
| CC(C)(C)[Si](C)(C)OC[C@H]1O[C@@H](n2cnc3c(N)ncnc32)[C@H](O[Si](C)(C)C(C)(C)C)C12OS(=O)(=O)C=C2N | - | EC50 | - | IIIB | syncytia | CEM | 0.08 µM |
| Cc1cc(C)c(Nc2nc(Nc3ccc(C#N)cc3)ncc2C)c(C)c1 | - | EC50 | - | LAI | cytopathic effect / MTT | MT-4 | 0.017 µM |
| O=C1N(Cc2ccc(CO)cc2)[C@H](Cc2ccccc2)[C@H](O)[C@@H](O)[C@@H](Cc2ccccc2)N1Cc1ccc(CO)cc1 | - | EC50 | - | Clinical isolate E | plaque count / virus yield | MT-2 | <0.07 µg/mL |
| O=c1[nH]cnc2c1ncn2[C@H]1CC[C@@H](CO)O1 | - | EC50 | - | 4718 | ELISA | PBMC | 3 µM |
| CCC(C)[C@H]1C(=O)O[C@H](C(C)C)C(=O)N(C)[C@@H](C(C)CC)C(=O)O[C@H](C(C)C)C(=O)N(C)[C@@H](C(C)C)C(=O)O[C@H](C(C)C)C(=O)N1C | - | EC50 | - | - | cytopathic effect / XTT | CEM + CEM-SS | 0.01 µg/mL |
| Cc1cn([C@H]2C[C@H](N=[N+]=[N-])[C@@H](CO)O2)c(=O)[nH]c1=O | - | EC50 | RT M41L L74V T215Y V106N | AZT RT-MDR | p24 | PBMC | >10 µM |
| OCc1cn(Cc2ccncc2)c(Sc2cc(Cl)cc(Cl)c2)c1C1CCCCC1 | - | EC50 | - | IIIB | cytopathic effect / MTT | MT-4 | 0.22 µM |
| COc1ccc(S(=O)(=O)O)cc1N=Nc1c(S(=O)(=O)O)cc2cc(Nc3nc(Nc4ccccc4)nc(Nc4cc(C)c(N=Nc5cc(S(=O)(=O)O)cc6cc(S(=O)(=O)O)cc(O)c56)cc4OC)n3)ccc2c1O | - | EC50 | - | NL4-3 | cytopathic effect / MTT | MT-4 | 0.6 µg/mL |
| O=S1[C@H](Cc2ccccc2)[C@H](OCc2ccccc2)[C@H](O)[C@@H](O)[C@@H](OCc2ccccc2)[C@@H]1Cc1ccccc1 | - | EC50 | - | IIIB | cytopathic effect / XTT | MT-2 | 2–10 µM |
| CCOCn1c(Cc2cc(C)cc(C)c2)c(CC)c(=O)[nH]c1=O | - | EC50 | - | JR-FL | cytopathic effect / MTT / p24 | Monocyte/macrophage + Monocytes/macrophages | 0.00074 µM |
| O=C(NCc1ccc(F)cc1)c1nc(N2CCCCS2(=O)=O)c2cccnc2c1O | - | EC50 | - | IIIB | β-galactosidase | - | 0.0063 µM |
| Oc1ccc(/C=C/c2cc(O)cc(O)c2)cc1 | - | EC50 | - | IIIB | p24 | PBMC (resting) + PBMC | ~5 µM |
| O=S1[C@H](Cc2ccccc2)[C@H](OCc2ccccc2)[C@H](O)[C@@H](O)[C@@H](OCc2ccccc2)[C@H]1Cc1ccccc1 | - | EC50 | - | IIIB | cytopathic effect / XTT | MT-2 | <2 µM |
| CC(C)c1c(C(=O)O)cn(Cc2ccncc2)c1Sc1ccccc1 | - | EC50 | - | IIIB | cytopathic effect / MTT | MT-4 | 4.7 µM |
| COc1ccc(C(OC[C@H]2O[C@@H](n3cc(C)c(=O)[nH]c3=O)C[C@@H]2O)(c2ccccc2)c2ccc(OC)cc2)cc1 | - | EC50 | - | - | cytopathic effect / MTT | MT-4 | >100 µg/mL |
| Nc1nc2c(ncn2[C@H]2C[C@@H](O)[C@H](CO)O2)c(=O)[nH]1 | - | EC50 | - | IIIB | cytopathic effect / MTT | MT-4 | >100 µM |
| CCc1cc(NCc2nc3c(Cl)ccc(Cl)c3o2)c(=O)[nH]c1C | - | EC50 | RT-M41L D67N T215Y | Clinical isolate (RT M41 D67N T215Y) | p24 | PBMC | <0.2 µM |
| NCCCCN(Cc1nc2ccccc2[nH]1)C1CCCc2cccnc21 | - | EC50 | - | NL4-3 | - | MT-4 | 0.0096 µM |
| CCOCn1c(Sc2cc(C)cc(C)c2)c(CC)c(=O)[nH]c1=O | - | EC50 | - | IIIB | cytopathic effect / MTT / p24 | PBL | 0.0018 µM |
| Cc1cc(C)cc(O[C@@H]2[C@H](O)[C@@H](O)[C@@H](Oc3cc(C)cc(C)c3)[C@@H](Cc3ccccc3)S(=O)(=O)[C@@H]2Cc2ccccc2)c1 | - | EC50 | - | IIIB | cytopathic effect / XTT | MT-2 | <2 µM |
| CONC(=O)c1cn(Cc2ccncc2)c(Sc2cc(Cl)cc(Cl)c2)c1C(C)C | - | EC50 | - | IIIB | cytopathic effect / MTT | MT-4 | 0.4 µM |
| O=C(O)/C=C/c1ccc[c]([Sb](=[O])([OH])[OH])c1 | - | EC50 | - | 92US077 X4/R5 clinical isolate | β-galactosidase | MAGI | <20 µM |
| COP(=S)(OC[C@@H]1CC[C@H](n2cnc3c(=O)[nH]cnc32)O1)C(=O)O | - | EC50 | - | - | p24 | - | 1–10 µM |
| CCN(C)C(=O)c1cnnn1C1OC(CO[Si](C)(C)C(C)(C)C)C2(OS(=O)(=O)C=C2N)C1O[Si](C)(C)C(C)(C)C | - | EC50 | - | IIIB | cytopathic effect | CEM | 0.33 µM |
| Nc1ncnc2c1ncn2CCOCP(=O)(O)O | - | EC50 | RT-E138K | IIIB | syncytia | CEM | 7.5 µM |
| O=C1N(Cc2ccc(CO)cc2)[C@H](Cc2ccccc2)[C@H](O)[C@@H](O)[C@@H](Cc2ccccc2)N1Cc1ccc(CO)cc1 | - | EC95 | PR-I84V | NL4-3 | p24 | MT-4 | 3 µM |
| CC(C)NC(=O)c1cnnn1C1OC(CO[Si](C)(C)C(C)(C)C)C2(OS(=O)(=O)C=C2N)C1O[Si](C)(C)C(C)(C)C | - | EC50 | - | IIIB | cytopathic effect | CEM | 0.18 µM |
| CCc1c(Sc2cc(C)cc(C)c2)n(COCc2ccccc2)c(=S)[nH]c1=O | - | EC50 | - | IIIB | cytopathic effect / MTT | MT-4 | 0.0076 µM |
| Cc1ccc(S(=O)(=O)N(CC(C)C)C[C@@H](O)[C@H](Cc2ccccc2)NC(=O)O[C@H]2CO[C@H]3OCC[C@H]32)cc1 | - | EC50 | I401T R409K D437N | IIIB | p24 / ELISA | MT-2 | 0.008 µM |
| O=c1ccn([C@@H]2O[C@@H](CO)[C@H](O)[C@H]2O)c(=O)[nH]1 | - | EC50 | - | IIIB | cytopathic effect / MTT | MT-4 | >1000 µM |
| CC(C)c1c(CO)cn(Cc2ccncc2)c1Sc1cc(Cl)cc(Cl)c1 | - | EC50 | - | IIIB | cytopathic effect / MTT | MT-4 | 0.03 µM |
| Nc1cccc(CO[C@@H]2[C@H](O)[C@@H](O)[C@@H](OCc3cccc(N)c3)[C@@H](Cc3ccccc3)S(=O)(=O)[C@@H]2Cc2ccccc2)c1 | - | EC50 | - | IIIB | cytopathic effect / XTT | MT-2 | <2 µM |
| C=C(CP(=O)(OCC)OCC)C1CCC2(C(=O)O)CC[C@]3(C)C(CCC4[C@@]5(C)CCC(OC(=O)CC(C)(C)C(=O)O)C(C)(C)C5CC[C@]43C)C12 | pseudotyped | EC50 | - | - | ELISA | CEM | 0.02 µM |
| Cc1cc(C)cc(S(=O)(=O)c2c(C(N)=O)[nH]c3ccc(Cl)cc23)c1 | - | EC50 | - | WILD TYPE | MTT | C8166 | 0.01 µM |
| CNc1ncnc2nc[nH]c12 | - | EC50 | - | IIIB | p24 | MOLT4 + MOLT-4 | >388 µM |
| Nc1nc2c(ncn2[C@@H]2O[C@@H](CO)[C@H](O)[C@H]2O)c(=O)[nH]1 | - | EC50 | - | BRU | syncytia | CEM | >100 µM |
| COP(=S)(OC[C@@H]1CC[C@H](n2cnc3c(N)ncnc32)O1)C(=O)O | - | EC50 | - | - | p24 | - | 1–10 µM |
| CC(C)(C)[Si](C)(C)OCC1OC(n2nncc2C(=O)N2CCC2)C(O[Si](C)(C)C(C)(C)C)C12OS(=O)(=O)C=C2N | - | EC50 | - | IIIB | cytopathic effect | MT-4 | 0.14 µM |
| C[n+]1cnc(N)c2[nH]cnc21 | - | EC50 | - | IIIB | p24 | MOLT4 + MOLT-4 | >426 µM |
| Nc1ncnc2c1ncn2CC(CF)OCP(=O)(O)O | - | EC50 | - | IIIB | syncytia | CEM | 9 µM |
| NC(=O)OCc1cn(Cc2ccncc2)c(Sc2cc(Cl)cc(Cl)c2)c1C1CC1 | - | EC50 | - | IIIB | cytopathic effect / MTT | MT-4 | 0.65 µM |
| CC(C)(C)NC(=O)[C@@H]1C[C@@H]2CCCC[C@@H]2CN1C[C@@H](O)[C@H](Cc1ccccc1)NC(=O)[C@H](CC(N)=O)NC(=O)c1ccc2ccccc2n1 | - | EC50 | PR-L10R | NL4-3 | p24 | MT-4 | <0.05 µM |
| CC(C)(C)[Si](C)(C)OC[C@H]1O[C@@H](n2ccc(=O)[nH]c2=O)[C@H](O[Si](C)(C)C(C)(C)C)C12OS(=O)(=O)C=C2N | - | EC50 | - | IIIB | syncytia | CEM | 0.13 µM |
| CNNC(=O)c1cn(Cc2ccncc2)c(Sc2ccccc2)c1C(C)C | - | EC50 | - | IIIB | cytopathic effect / MTT | MT-4 | >200 µM |
| Cc1cn([C@H]2C[C@H](N=[N+]=[N-])[C@@H](CO)O2)c(=O)[nH]c1=O | - | EC50 | 8374-P62 GS-8374-resistant | IIIB | ATP | MT-2 | 0.312 µM |
| COC(=O)[C@H](C)NP(=O)(OC[C@@H]1C=C[C@H](n2cc(C)c(=O)[nH]c2=O)O1)Oc1ccc(Br)cc1 | - | EC90 | - | IIIB | p24 | PBMC | 0.0097 µM |
| CC(C)(C)[Si](C)(C)OCC1OC(n2nncc2C(=O)NC2CCCC2)C(O[Si](C)(C)C(C)(C)C)C12OS(=O)(=O)C=C2N | - | EC50 | - | IIIB | cytopathic effect | MT-4 | 0.86 µM |
| Nc1ccc(CO[C@@H]2[C@H](O)[C@@H](O)[C@@H](OCc3ccc(N)c(C(F)(F)F)c3)[C@@H](Cc3ccccc3)S(=O)(=O)[C@@H]2Cc2ccccc2)cc1C(F)(F)F | - | EC50 | - | IIIB | cytopathic effect / XTT | MT-2 | <2 µM |
| CCN(c1nc(F)ccc1NC(C)(C)C)C1CCN(C(=O)c2cc3cc(NC(=O)N4CCN(C)CC4)ccc3[nH]2)CC1 | - | EC50 | M200I | IIIB | p24 / ELISA | MT-2 | 0.0261 µM |
| S=C(NCCN1CCNCC1)Nc1ccc(Br)cn1 | - | EC50 | - | IIIB | RT activity | MT-4 | >100 µM |
| Cc1cn([C@@H]2O[C@H](CO[Si](C)(C)C(C)(C)C)[C@@]3(OS(=O)(=O)C=C3N)[C@H]2O[Si](C)(C)C(C)(C)C)c(=O)[nH]c1=O | - | EC50 | RT-E138K | IIIB | syncytia | CEM | 6.2 µM |
| NC(=O)OCc1cn(Cc2ccncc2)c(Sc2cc(Cl)cc(Cl)c2)c1C1CCC1 | - | EC50 | - | IIIB | cytopathic effect / MTT | MT-4 | 0.007 µM |
| Nc1ccn([C@H]2CC[C@@H](CO)O2)c(=O)n1 | - | EC50 | RT-E138K | IIIB | syncytia | CEM | 0.09 µM |
| O=[N+]([O-])c1cccc(CO[C@@H]2[C@H](O)[C@@H](O)[C@@H](OCc3cccc([N+](=O)[O-])c3)[C@@H](Cc3ccccc3)S(=O)(=O)[C@@H]2Cc2ccccc2)c1 | - | EC50 | - | IIIB | cytopathic effect / XTT | MT-2 | <2 µM |